Reference: publication PMC9820238, “Effect of B-NIPOx in Experimental Trypanosoma cruzi Infection in Mice” (International Journal of Molecular Sciences, 2022)

Tests used:
Assay in all cases: NADH oxidation at […] nm
Format in all cases: biochemical, Trypanosoma cruzi
Settings in all cases: 5 mM α-ketoisocaproate, 0.12 mM NADH, PBS pH 7.4, 37 °C
[1] = tested on: α-hydroxy acid dehydrogenase isozyme II (HADH-II), INC-5 strain
[2] = tested on: α-hydroxy acid dehydrogenase isozyme II (HADH-II), Compostela strain
[3] = tested on: α-hydroxy acid dehydrogenase isozyme II (HADH-II), Miguz strain
[4] = tested on: α-hydroxy acid dehydrogenase isozyme II (HADH-II), NINOA strain

CC(C)NC(=O)C(=O)O [NIPOx]
< 20%: % residual activity at 0.50 mM [1] | % residual activity at 0.50 mM [2] | % residual activity at 0.50 mM [3] | % residual activity at 0.50 mM [4]

CCCNC(=O)C(=O)O [NPOx]
< 20%: % residual activity at 1.25 mM [1] | % residual activity at 1.50 mM [2] | % residual activity at 1.50 mM [3] | % residual activity at 1.25 mM [4]
